Anti-infective test results gathered from many reports (values: NIAID ChemDB through PubChem).

Common to all: growth or infection tests; agent: HIV-1

Blank or dashed fields: not listed here.

| smiles | mutations | read by | measure | strain or isolate | cell line | setting | result |
|---|---|---|---|---|---|---|---|
| C=C[C@@]1(C)C=C2CC[C@@H]3[C@@](C)(CO)[C@H](O)CC[C@@]3(C)[C@@H]2C[C@@H]1O |  | luciferase | EC50 | NL4-3 | MT-4 |  | >20 µM |
| Nc1nc(NC2CC2)c2ncn([C@H]3C=C[C@@H](CO)C3)c2n1 | RT-D67N K70R T215Y |  | EC50 | HXB2D (RT D67N K70R T215Y) | MT-2 |  | 0.0007 µM |
| CCN(C(=O)OCc1ccccc1)C1CCN(CCC(CN(C)S(=O)(=O)c2ccccc2)c2ccccc2)CC1 |  | p24 | EC50 | YU-2 (M-tropic) | PBMC |  | <12.5 µM |
| C=C(/C=C/P(=O)(O)O)CCn1cnc2c(=O)[nH]c(N)nc21 |  | p24 | EC50 | RF | C8166 |  | 8 µM |
| CC(C)(C)NC(=O)C1N(C(=O)[C@@H](O)[C@H](Cc2ccccc2)NC(=O)[C@H](CS(C)(=O)=O)NC(=O)COc2cccc3ccccc23)CSC1(C)C |  | trypan blue | EC50 | LAI | ATH8 |  | 0.1 µM |
| O=C(NCCO)[C@H](OCc1ccccc1)[C@H](O)[C@@H](O)[C@@H](OCc1ccccc1)C(=O)N[C@H]1c2ccccc2C[C@H]1O |  | cytopathic effect / XTT | EC50 |  | MT-4 |  | 60 µM |
| CN(C[C@@H](CCN1CCC2(CC1)CS(=O)c1ccccc12)c1ccc(Cl)c(Cl)c1)S(=O)(=O)c1ccccc1 |  | p24 | EC95 | YU-2 (M-tropic) | PBMC |  | 6–12 µM |
| Cc1c(C(C)(C)C)s/c(=N\S(=O)(=O)c2cc(Cl)ccc2NS(C)(=O)=O)n1C |  | cytopathic effect / MTT | EC50 | IIIB | MT-4 |  | >25 µM |
| Cc1cn([C@H]2C[C@H](N=[N+]=[N-])[C@@H](CO)O2)c(=O)[nH]c1=O |  | luciferase | EC50 | NL4-3 | MT-4 |  | 0.0043 µM |
| NC(=O)c1cccc(C[C@H]2C[C@H](Cc3ccccc3)N(C[C@@H](O)C[C@@H](Cc3ccccc3)C(=O)N[C@H]3c4ccccc4C[C@H]3O)C2=O)c1 |  |  | EC50 |  | MT-4 + MT4 |  | 0.14 µM |
| CC(C)c1s/c(=N\S(=O)(=O)c2cc(Cl)ccc2O)n(C)c1Cl |  | cytopathic effect / MTT | EC50 | IIIB | MT-4 |  | 0.027 µM |
| CC[C@@H]1O[C@@H]([C@]2(C)C[C@@H](C)[C@](O)([C@]3(C)CC[C@@H]([C@@H](O)[C@]4(O)O[C@H](C[C@@]5(O)O[C@@H]([C@@H](C)[C@H](O)C[C@@H]6O[C@H]([C@@H](C)C(=O)O)[C@@H](C)C[C@H]6C)CC[C@@H]5C)[C@@H](C)C[C@H]4C)O3)O2)CC[C@@]1(C)O |  | RT activity | EC50 | IIIB | H9 |  | 2.5 µg/mL |
| Cc1c(C(C)(C)C)s/c(=N\S(=O)(=O)c2cccc(Cl)c2)n1C |  | cytopathic effect / MTT | EC50 | IIIB | MT-4 |  | 0.2 µM |
| CC[C@@]1([C@@H]2O[C@@H]([C@H]3O[C@@](O)(CO)[C@H](C)C[C@@H]3C)C[C@@H]2C)CC[C@H]([C@]2(C)CC[C@]3(C[C@H](O)[C@@H](C)[C@@H]([C@@H](C)[C@@H](OC)[C@H](C)C(=O)O)O3)O2)O1 |  | RT activity | EC50 | IIIB | U-937 |  | 0.5 µg/mL |
| CC(C)(C)NC(=O)[C@@H]1CN(C(C)(C)c2cc3cnccc3o2)CCN1C[C@@H](O)C[C@@H](Cc1ccccc1)C(=O)N[C@H]1c2ccccc2C[C@H]1O | PR-L10I S37N M46I I54V Q58E L63P I64V V77I V82F L90M I93L |  | EC95 | K-60C (PR L10I S37N M46I I54V Q58E L63P I64V V77I V82F L90M I93L) |  |  | >1 µM |
| COC1CCC(OC2CC(C3OC(O)(CO)C(C)CC3C)OC2C2(C)CCC(C3(C)CCC4(CC(O)C(C)C(C(C)C5OC(O)(CC(=O)O)C(C)C(OC6CCC(OC)C(C)O6)C5OC)O4)O3)O2)OC1C |  | RT activity | EC50 | IIIB | U-937 |  | 3.7 µg/mL |
| Cc1cn([C@H]2C[C@H](N=[N+]=[N-])[C@@H](CO)O2)c(=O)[nH]c1=O | RT-K70R | cytopathic effect | EC50 | DI-06.92 (HXB2 RT-K70R) | MT-4 |  | 0.058 µM |
| [Li+] |  | antigen | EC50 | IIIB | MT-4 |  | >1000 µg/mL |
| COc1ccccc1S(=O)(=O)/N=c1\sc(C(C)(C)C)c(C)n1C |  | cytopathic effect / MTT | EC50 | IIIB | MT-4 |  | 10 µM |
| CSC[C@H](NC(=O)COc1cccc2cnccc12)C(=O)N[C@@H](Cc1ccccc1)[C@H](O)C(=O)N1CSC(C)(C)[C@H]1C(=O)NC(C)(C)C |  | p24 | EC50 | ERS104 | PBMC(PHA) + PBMC | clinical isolate | 0.02 µM |
| CN(C[C@@H](CCN1CCC(CCCc2ccccc2)CC1)c1cccc(Cl)c1)S(=O)(=O)c1ccccc1 |  | p24 | EC95 | YU-2 (M-tropic) | PBMC |  | 12.5 µM |
| O=C1N(Cc2ccc(CO)cc2)[C@H](COc2ccccc2)[C@H](O)[C@@H](O)[C@@H](COc2ccccc2)N1Cc1ccc(CO)cc1 | PR-V82A | cytopathic effect / XTT | EC50 | IIIB | MT-4 |  | 0.1 µM |
| Cc1c(C(C)C)s/c(=N\S(=O)(=O)c2cc(Br)ccc2C#N)n1C |  | cytopathic effect / MTT | EC50 | IIIB | MT-4 |  | 0.0021 µM |
| Cc1cc(S(N)(=O)=O)ccc1NC(=O)COc1ccc(Cl)cc1C(=O)c1cc(Cl)cc(C#N)c1 | RT-V106I | β-galactosidase | EC50 | NNRTI-resistant (RT V106I) | MAGI |  | 0.0011 µM |
| CNC(=O)[C@@H](NC(=O)[C@H](OCc1ccccc1)[C@H](O)[C@@H](O)[C@@H](OCc1ccccc1)C(=O)N[C@H]1c2ccccc2C[C@H]1O)C(C)C |  | cytopathic effect / XTT | EC50 |  | MT-4 |  | 0.1 µM |
| C[C@H](Cn1cnc2c(N)ncnc21)OCP(=O)(O)O |  | cytopathic effect / XTT | EC50 | HXB2D | MT-2 |  | 0.003 µM |
| CC(C)Nc1cccnc1N1CCN(C(=O)c2cc3cc(NS(C)(=O)=O)ccc3[nH]2)CC1 | RT-A62V S68G T69D V75I F77L F116Y Q151M | cytopathic effect | EC50 | BI-03.97 (HXB2(RT-A62V S68G T69D V75I F77L F116Y Q151M)) | MT-4 |  | 0.04 µM |
| NS(=O)(=O)c1ccc(Oc2ccc(NC(=O)N[C@@H]3[C@@H]4CCc5c(F)ccc(F)c5[C@@H]43)cc2)cc1 | Y181C | ELISA | EC50 | IIIB | MT-4 cells |  | 0.0053 µM |
| COc1ccccc1CNC(=O)[C@H](OCc1ccccc1)[C@H](O)[C@@H](O)[C@@H](OCc1ccccc1)C(=O)N[C@H]1c2ccccc2C[C@H]1O |  | cytopathic effect / XTT | EC50 |  | MT-4 |  | 4 µM |
| Clc1nc(Cl)c2[nH]cnc2n1 | RT-P157S | p24 | EC50 |  | CD4+HELA + HeLa |  | 0.9 µM |
| CCC(C)C(NC(=O)[C@@H]1CCCN1C(=O)[C@@H](O)[C@H](Cc1ccccc1)NC(=O)[C@H](CC(N)=O)NC(=O)OCc1ccccc1)C(=O)NCC1CCCCC1 |  | trypan blue | EC50 | LAI | ATH8 |  | 17 µM |
| CN(C[C@@H](CCN1CCC2(CC1)CC(=O)c1ccccc12)c1cccc(Cl)c1)S(=O)(=O)c1ccccc1 |  | p24 | EC95 | YU-2 (M-tropic) | PBMC |  | 1.5 µM |
| Cc1c(C(C)(C)C)s/c(=N\S(=O)(=O)c2cc(Cl)ccc2C#N)n1C |  | cytopathic effect / MTT | EC50 | IIIB | MT-4 |  | 0.0083 µM |
| O=c1[nH]cnc2c1ncn2[C@H]1CC[C@@H](CO)O1 |  | cytopathic effect / MTT | EC50 | RF | MT-4 |  | 13 µM |
| Nc1nc2c(ncn2[C@H]2CO[C@@H](CO)O2)c(=O)[nH]1 |  | cytopathic effect / XTT | EC50 | HXB2D | MT-2 |  | 0.0019 µM |
| CCO/N=C(\c1ccc(Br)cc1)C1CCN(C2(C)CCN(C(=O)c3c(C)cc[n+]([O-])c3C)CC2)CC1 |  | p24 | EC50 | BAL R5 | PBMC |  | 0.003 µM |
| CC(C)c1nc(CN(C)C(=O)N[C@H](C(=O)N[C@@H](Cc2ccccc2)C[C@H](O)[C@H](Cc2ccccc2)NC(=O)OCc2cncs2)C(C)C)cs1 | RT-A62V S68G T69N V75I F77L F116Y Q151M | cytopathic effect | EC50 | HXB2 | MT-4 |  | >5 µM |
| CC(C)(C)NC(=O)[C@@H]1CSCN1C(=O)[C@@H](O)[C@H](Cc1ccccc1)NC(=O)[C@H](CC(N)=O)NC(=O)COc1cccc2ccccc12 |  | p24 | EC50 | ERS104 | PBMC(PHA) + PBMC | clinical isolate | 0.11 µM |
| CC(C)c1s/c(=N\S(=O)(=O)c2cccc([N+](=O)[O-])c2)n(C)c1Cl |  | cytopathic effect / MTT | EC50 | IIIB | MT-4 |  | 0.048 µM |
| CCCCN1C(=O)[C@@H]([C@H](O)C2CCCCC2)NC(=O)C12CCN(Cc1ccc(Oc3ccc(C(=O)O)cc3)cc1)CC2 |  | p24 | EC50 | BAL R5 | PBMC |  | 0.0005 µM |
| CCCN(C(=O)NCc1ccccc1)C1CCN(CCC(CN(C)S(=O)(=O)c2ccccc2)c2ccccc2)CC1 |  | p24 | EC95 | YU-2 (M-tropic) | PBMC |  | 3 µM |
| Nc1cccc(C[C@H]2C[C@H](Cc3ccccc3)N(C[C@@H](O)C[C@@H](Cc3ccccc3)C(=O)N[C@H]3c4ccccc4C[C@H]3O)C2=O)c1 |  |  | EC50 |  | MT-4 + MT4 |  | 0.32 µM |
| CC(C)(C)NC(=O)[C@@H]1CN(C(C)(C)c2cccnc2)CCN1C[C@@H](O)C[C@@H](Cc1ccccc1)C(=O)N[C@H]1c2ccccc2C[C@H]1O |  |  | EC95 | NL4-3 | MT-4 |  | 0.05 µM |

For reference, 4 entries again:

smiles	mutations	read by	measure	strain or isolate	cell line	setting	result
Cc1c(C(C)C)s/c(=N\S(=O)(=O)c2cc(Br)ccc2C#N)n1C		cytopathic effect / MTT	EC50	IIIB	MT-4		0.0021 µM
CC(C)(C)NC(=O)[C@@H]1CN(C(C)(C)c2cccnc2)CCN1C[C@@H](O)C[C@@H](Cc1ccccc1)C(=O)N[C@H]1c2ccccc2C[C@H]1O			EC95	NL4-3	MT-4		0.05 µM
Nc1cccc(C[C@H]2C[C@H](Cc3ccccc3)N(C[C@@H](O)C[C@@H](Cc3ccccc3)C(=O)N[C@H]3c4ccccc4C[C@H]3O)C2=O)c1			EC50		MT-4 + MT4		0.32 µM
CCN(C(=O)OCc1ccccc1)C1CCN(CCC(CN(C)S(=O)(=O)c2ccccc2)c2ccccc2)CC1		p24	EC50	YU-2 (M-tropic)	PBMC		<12.5 µM

Conditions beyond the fields shown may differ between rows. ECn: concentration that inhibits the pathogen or its effect by n%. Two numbers with a dash give a range or band.